Measurements as given in publication PMC9132681 (Biochimie, 2022).

Target: T1, cytosolic fragment of human TOM70 (residues 111-608), His-tagged (human, UniProt O94826 111-608)
T1 sequence: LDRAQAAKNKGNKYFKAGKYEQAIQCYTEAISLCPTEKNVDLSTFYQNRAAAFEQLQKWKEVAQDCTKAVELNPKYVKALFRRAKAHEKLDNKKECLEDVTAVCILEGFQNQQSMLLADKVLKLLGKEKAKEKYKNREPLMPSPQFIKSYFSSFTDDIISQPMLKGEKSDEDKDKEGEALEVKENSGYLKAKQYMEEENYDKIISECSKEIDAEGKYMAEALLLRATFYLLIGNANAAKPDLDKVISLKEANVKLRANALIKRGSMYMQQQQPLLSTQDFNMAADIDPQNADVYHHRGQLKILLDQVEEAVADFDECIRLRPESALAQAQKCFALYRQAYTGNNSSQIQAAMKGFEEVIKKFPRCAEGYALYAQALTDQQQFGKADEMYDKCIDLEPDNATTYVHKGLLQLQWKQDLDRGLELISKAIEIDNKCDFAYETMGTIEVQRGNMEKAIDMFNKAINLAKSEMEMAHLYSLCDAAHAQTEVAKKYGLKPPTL
Assay: SEC-MALS

B1: SARS-CoV-2 ORF9b (open reading frame 9b), His-tagged recombinant protein (natural protein)
chain: not shown
- stoichiometry N: 1 ORF9b per TOM70
